Anti-infective test results gathered from many reports (values: NIAID ChemDB through PubChem).

Shared fields: whole-cell or culture tests; species: Mycobacterium tuberculosis

Lines come from different laboratories, so protocols vary.

compound,dose,strain,mutations,read by,read-out,result
O=C(COc1ccccc1)N=Nc1c(O)[nH]c2ccccc12,,H37Rv,,,MIC,>12.5 µg/mL
COc1cc2c(oc(=O)c3cc(C)cc(OC)c32)c2c(C3OC(C)C(O)C(C)(O)C3O)ccc(O)c12,,CS-R,,,MIC,3.1 µg/mL
CCCCN1C(=O)C(C)S/C1=N\N=C1/C(=O)Nc2ccccc21,,H37Rv,,,MIC,>12.5 µg/mL
CN(C)c1ccc(N=C2C=CC(=O)c3ccccc32)cc1,12.5 µg/mL,H37Rv,,BACTEC,inhibition,97%
CC(C)[C@H]1CO[C@]23CC[C@H](NCC4=Cc5ccccc5C4N)C[C@H]2CCC(=O)N13,,,,resazurin,MIC,<0.5 µM
O=C(Nc1ccccc1)c1cc(/C=C/c2cccs2)nc2ccccc12,,H37Rv,,fluorescence,MIC,>6.25 µg/mL
CC(C)[C@H]1CO[C@]23CC[C@H](N(Cc4ccc(C(F)(F)F)cn4)CC4CN(C(=O)OC(C)(C)C)C4)C[C@H]2CCC(=O)N13,,,,resazurin,MIC,0.5–5 µM
CN(N=O)C(=O)NC1C(CO)OC2OC(C)(C)OC21,12.5 µg/mL,H37Rv,,BACTEC,inhibition,6%
C1=C(c2nc(-c3ccccc3)no2)c2ccccc2OC12CCN(CC1CCCO1)CC2,,H37Rv,,colony count / visual reading,MBC,1.3 µM
O=C(CSc1nc2ccccc2[nH]1)N=Nc1c(O)[nH]c2ccccc12,,H37Rv,,,MIC,>12.5 µg/mL
CN1CCN(CCCN2c3ccccc3Sc3ccc(C(F)(F)F)cc32)CC1,,H37Rv,,,MBC,10–20 µg/mL
Cc1cn2c(C(=O)NCc3ccc(N4CCCN(c5ccc(S(F)(F)(F)(F)F)cc5)CC4)cc3)c(C)nc2s1,,H37Rv,,resazurin,MIC90,<2 µM
O=C(NNc1nc(-c2ccc(Cl)cc2)cs1)c1ccccc1Cl,12.5 µg/mL,H37Rv,,BACTEC,inhibition,21%
Oc1ccc(Cl)cc1C(=S)Nc1ccc(Cl)c(Cl)c1,,My 331/88,,,MIC,2 µM
COc1ccc(/C=N/NC(=O)c2cc(-c3ccc(F)cc3F)ccc2O)cc1,,H37Rv,,resazurin,MIC,>6.25 µg/mL
FC(F)(F)c1cc(-c2ccccc2)nc(N2N=C(/C=C/c3ccc(Cl)cc3)CC2c2ccc(Cl)cc2)n1,,H37Rv,,resazurin,MIC,>41.2 µM
Cc1ccn2c(C(=O)NCc3ccc(N4CCN(c5ccc(S(F)(F)(F)(F)F)cc5)CC4)c(F)c3)c(C)nc2c1,,H37Rv,,resazurin,MIC90,<2 µM
c1cc2c(N3CCOCC3)cc(N3CCOCC3)nc2nc1N1CCOCC1,,H37Rv,,BACTEC,EC50,>6.25 µg/mL
CCC(C)c1ccc(NC(=S)c2cc(Cl)ccc2O)cc1,,My 331/88,,,MIC,1 µM
O=C(O)c1cc(-c2ccc(Br)cc2)nc2ccccc12,,H37Rv,,fluorescence,MIC,6.25 µg/mL
Clc1ccc2c(N3CCOCC3)cc(N3CCOCC3)nc2n1,6.25 µg/mL,H37Rv,,BACTEC,inhibition,1%
Cc1ccc(NC(=O)c2cc(-c3ccccc3)nc3ccc(C)cc23)cc1,,H37Rv,,fluorescence,MIC,>6.25 µg/mL
COc1ccc(C(CC(=O)c2ccc3c(c2)OCO3)c2c(O)c3ccccc3oc2=O)cc1OC,12.5 µg/mL,H37Rv,,BACTEC,inhibition,0%
Cc1nc2ccc(F)cn2c1C(=O)NCc1ccc2c(c1)CCO2,,H37Rv,,resazurin,MIC90,<2 µM
C/C(=N\NC(=O)c1ccncc1)c1ccccc1,,H37Rv (thiacetazone-resistant),,,MIC,>32 µg/mL
c1cc2c(N3CCCCC3)cc(N3CCOCC3)nc2nc1N1CCOCC1,,H37Rv,,BACTEC,EC50,>6.25 µg/mL
CC(C)[C@H]1CO[C@]23CC[C@H](N(Cc4ccc(C(F)(F)F)cc4)CC4CCCCN4C(=O)OC(C)(C)C)C[C@H]2CCC(=O)N13,,,,resazurin,MIC,<0.5 µM
CCCCn1c(-c2ccccc2)cs/c1=N\N=C1/C(=O)Nc2ccccc21,,H37Rv,,,EC50,>12 µg/mL
Cc1ccc(NC(=O)c2cc(/C=C/c3cccs3)nc3ccc(C)cc23)cc1,,H37Rv,,fluorescence,MIC,>6.25 µg/mL
CCCc1c(O)nc(Nc2nc3ccccc3[nH]2)[nH]c1=O,,H37Rv,,BACTEC,MIC bound,>6.25 µg/mL
O=C(Nc1ccccc1)c1cc(-c2ccc(-c3cccs3)s2)nc2ccccc12,,H37Rv,,fluorescence,MIC,>6.25 µg/mL
C[N+](C)=c1ccc2nc3c(ccc4ccccc43)oc-2c1.[Cl-],,H37Rv,,,MIC,6.25 µg/mL
C=C(CN[C@@H]1CC[C@]23OC[C@H](C(C)C)N2C(=O)CC[C@@H]3C1)c1ccc(C(F)(F)F)cc1,,,,resazurin,MIC,0.5–5 µM
Cc1ccc2c(Cl)c(C)c(N3CCOCC3)nc2n1,,H37Rv,,BACTEC,EC50,>6.25 µg/mL
O=C(Nc1nc(-c2cccs2)cs1)c1cc(/C=C/c2ccc([N+](=O)[O-])s2)nc2ccccc12,,H37Rv,,fluorescence,MIC,3.125 µg/mL
CCc1nc2ccc(Cl)cn2c1C(=O)NCc1ccc(NCCN2CCOCC2)c(F)c1,,H37Rv,,resazurin,MIC90,<2 µM
CC1COc2c(N3CCN(C)CC3)c(F)cc3c(=O)c(C(=O)O)cn1c23,,22 isolates,,,MIC50,1 µg/mL
CC[C@H]1OC(=O)[C@H](C)[C@@H](O[C@H]2C[C@@](C)(OC)[C@@H](O)[C@H](C)O2)[C@H](C)[C@@H](O[C@@H]2O[C@H](C)C[C@H](N(C)C)[C@H]2O)[C@](C)(O)C[C@@H](C)C(=O)[C@H](C)[C@@H](O)[C@]1(C)O,,H37Rv,,,MBC,>160 µg/mL
CCOc1ccc(NC2=CC(=O)C(=O)c3ccccc32)cc1,,H37Rv,,resazurin,MIC,≤0.1 µg/mL
CC(C)[C@H]1CO[C@]23CC[C@H](N(Cc4ccc(C(F)(F)F)cc4)C4CC4)C[C@H]2CCC(=O)N13,,,,resazurin,MIC,<0.5 µM
COc1ccc(-c2noc(C3=CC4(CCN(CC5CCCO5)CC4)c4ccccc43)n2)cc1,,12119,Ofloxacin-resistant,resazurin,MIC,0.78 µM
Cc1nc(-[n+]2nc(-c3ccncc3)nn2-c2ccccc2)sc1C.[Br-],,H37Rv,,BACTEC,MIC,≥12.5 µg/mL
Cc1ccccc1/C=C/C1=NN(C(=N)N)C(c2ccccc2C)C1,,H37Rv,,resazurin,MIC,0.98 µM
Cn1c(=O)nc2n(-c3ccc(F)c(F)c3)c3ccccc3nc-2c1=O,,H37Rv,,resazurin,MIC,>12.5 µg/mL
O=C(N/N=C/c1cccc(F)c1)c1cc(-c2ccc(F)cc2F)ccc1O,,H37Rv,,resazurin,MIC,>6.25 µg/mL
Cc1ccc2c(N3CCCCC3)c(Cc3ccccc3)c(N3CCCCC3)nc2n1,6.25 µg/mL,H37Rv,,BACTEC,inhibition,96%
CN[C@@H]1[C@H](O[C@H]2[C@H](O[C@H]3[C@H](O)[C@@H](O)[C@H](N=C(N)N)[C@@H](O)[C@@H]3N=C(N)N)O[C@@H](C)[C@]2(O)C=O)O[C@@H](CO)[C@H](O)[C@H]1O,,ATCC 2794,Drug-resistant,resazurin,MIC,0.5 µM
C/C(=N\NC(=O)c1ccncc1)c1ccccc1F,,H37Rv (ethambutol-resistant),,,MIC,1 µg/mL
O=C1N(CC2CC2)c2ccccc2C12CCN(Cc1cccnc1)CC2,,H37Rv,,resazurin,MIC,50 µM
Oc1ccc(Cl)cc1C(=S)Nc1cccc(F)c1,,My 331/88,,,MIC,2 µM
CC(=O)Nc1ccc2c(Cl)cc(N3CCCCC3)nc2n1,6.25 µg/mL,H37Rv,,BACTEC,inhibition,8%
COC(=O)C1=CCC2C(C(=O)O)=COC(OC3OC(CO)C(O)C(O)C3O)C12,,H37Rv,,BACTEC,MIC,≥12.5 µg/mL
CC(C)[C@H]1CO[C@]23CC[C@H](N(Cc4ccc(C(F)(F)F)cc4)C[C@@H]4CCCN4)C[C@H]2CCC(=O)N13,,,,resazurin,MIC,0.5–5 µM
COC(=O)c1cc(-c2ccc(F)cc2F)ccc1O,,H37Rv,,resazurin,MIC,>6.25 µg/mL
CC1(C)CC(=O)c2c(oc3ccc(O)cc23)C1,12.5 µg/mL,H37Rv,,BACTEC,inhibition,13%
Cc1ccc2c(Cl)c(Cc3ccccc3)c(N3CCCCC3)nc2n1,,H37Rv,,BACTEC,EC50,>6.25 µg/mL
CC(C)[C@H]1CO[C@]23CC[C@H](N(CCCC(F)(F)F)Cc4ccc(C(F)(F)F)cc4)C[C@H]2CCC(=O)N13,,,,resazurin,MIC,<0.5 µM
NNC(=O)c1cc(-c2cccs2)nc2ccccc12,,H37Rv,,fluorescence,MIC,>6.25 µg/mL
CC(C)c1ccc(NC(=S)c2cc(Cl)ccc2O)cc1,,My 331/88,,,MIC,1 µM
Cc1cn2c(C(=O)NCc3ccc(N4CCC(c5ccc(OC(F)(F)F)cc5)CC4)cc3)c(C)nc2s1,,H37Rv,,resazurin,MIC90,<2 µM
Cl.NC(=Nc1ccc(S(=O)(=O)Nc2cnccn2)cc1)/N=C(\N)Nc1ccc(Br)cc1,12.5 µg/mL,H37Rv,,BACTEC,inhibition,90%
NNC(=O)c1cc(-c2ccc([N+](=O)[O-])s2)nc2ccccc12,,H37Rv,,fluorescence,MIC,1.56 µg/mL
Cc1ccn2c(C(=O)NCc3ccc(N4CCC(c5ccc(OC(F)(F)F)cc5)CC4)cc3)c(C)nc2c1,,H37Rv,,resazurin,MIC90,<2 µM
CC(C)(C)N/N=C(\Cc1nc2c3c(ccc2[nH]c1=O)C(=O)c1ccccc1C3=O)C(=O)NC1=C(Cl)C(=O)c2ccccc2C1=O,,H37Rv,,BACTEC,MIC bound,>12.5 µg/mL
C1=C(c2nc(-c3cccnc3)no2)c2ccccc2C12CCN(CC1CCCO1)CC2,,TB376,Spiroindene-resistant,turbidity,MIC,>31 µM
CC(=O)C(N=Nc1ccc(S(=O)(=O)NC2ONC(C)C2C)cc1)C(=O)Nc1ccc(Cl)cc1,,H37Rv,,BACTEC,MIC bound,>12.5 µg/mL
N=C(N)N1N=C(/C=C/c2ccccc2)CC1c1ccccc1,,RGM171,rpsL L43R streptomycin-resistant,resazurin,MIC,0.27 µM
Cc1ccn2c(C(=O)NCc3ccc(N(C)C)cc3)c(C)nc2c1,,H37Rv,,resazurin,MIC90,<2 µM
CC(C)[C@H]1CO[C@]23CC[C@H](N(Cc4ccc(C(F)(F)F)cc4)C4CN(CCC(F)(F)F)C4)C[C@H]2CCC(=O)N13,,,,resazurin,MIC,<0.5 µM
NNC(=O)c1cc(-c2ccccc2)nc2ccccc12,12.5 µg/mL,H37Rv,,BACTEC,inhibition,37%
CC(NNC(=O)c1ccncc1)c1ccc(F)cc1,,Rifampicin-resistant,,,MIC,3.13 µg/mL
NNC(=O)c1cc(-c2ccc(F)cc2F)ccc1O,6.25 µg/mL,H37Rv,,resazurin,inhibition,21%
O=C(N/N=C/c1cccc(C(F)(F)F)c1)c1ccncc1,,Isoniazid-resistant,,,MIC,>3.2 µg/mL
CC(O)CNC1=CC(=O)C(=O)c2ccccc21,,H37Rv,,resazurin,MIC bound,>6.25 µg/mL
Cc1cc(C)c(/C=N/NC(=O)c2cc(-c3ccc(F)cc3F)ccc2O)c(C)c1,6.25 µg/mL,H37Rv,,resazurin,inhibition,31%
O=c1oc(-c2ccc(O)cc2)nn1CN1CCOCC1,12.5 µg/mL,H37Rv,,BACTEC,inhibition,22%
O=C(N/N=C/c1ccccc1F)c1ccncc1,,Rifampicin-resistant,,,MIC,0.05 µg/mL
C=CCNC(=S)N=Nc1c(O)[nH]c2ccc(Br)cc12,12 µg/mL,H37Rv,,,inhibition,53%
O=C(NC(Cc1c[nH]c2ccccc12)C(=O)O)c1ccccc1[N+](=O)[O-],,H37Rv,,BACTEC,MIC bound,>12.5 µg/mL
CC(C)(C)c1ccc(CN2CCC3(CC2)C(=O)Nc2ccccc23)cc1,,H37Rv,,turbidity,MIC,3.1 µM
O=C1OC2(CCCC2)OC(=O)C1=C/C=C/c1ccc([N+](=O)[O-])o1,,H37Rv,,BACTEC,MIC,≥12.5 µg/mL
N#C[B][n+]1ccc(C(=O)NNCC(F)(F)F)cc1,,H37Rv,,,MIC,0.78 µg/mL

A second listing of 5 rows from above:

compound | dose | strain | mutations | read by | read-out | result
COc1ccc(/C=N/NC(=O)c2cc(-c3ccc(F)cc3F)ccc2O)cc1 |  | H37Rv |  | resazurin | MIC | >6.25 µg/mL
Clc1ccc2c(N3CCOCC3)cc(N3CCOCC3)nc2n1 | 6.25 µg/mL | H37Rv |  | BACTEC | inhibition | 1%
Cc1ccc(NC(=O)c2cc(-c3ccccc3)nc3ccc(C)cc23)cc1 |  | H37Rv |  | fluorescence | MIC | >6.25 µg/mL
CC1COc2c(N3CCN(C)CC3)c(F)cc3c(=O)c(C(=O)O)cn1c23 |  | 22 isolates |  |  | MIC50 | 1 µg/mL
C[N+](C)=c1ccc2nc3c(ccc4ccccc43)oc-2c1.[Cl-] |  | H37Rv |  |  | MIC | 6.25 µg/mL

Percent inhibition refers to the dose given; in toxicity tests it is the harm to the cells. ECn is the concentration giving n% inhibition of infection, replication or growth. Two numbers with a dash give a range or band. A number after MIC or MFC names an inhibition level or a share of isolates. An empty or dashed field is not shown. MIC bound comes from a single tested concentration.